Measured values from several laboratories, pooled; numbers as filed in NIAID ChemDB.

Common to all: whole-cell or culture tests; species: HIV-1; cell line: MT-2; read-out: EC50

ECn: concentration that inhibits the pathogen or its effect by n%. An empty or dashed field is not shown. Neighbouring rows are from separate reports.

Cc1cn([C@H]2C=C[C@@H](CO)O2)c(=O)[nH]c1=O ; strain: Clinical isolate ; changes: M41L/D67N/K70R/K103N/L210W/T215F/K219Q ; read by: recombinant virus assay ; value: 1.632 µM
O=C1N(Cc2ccc(O)cc2)[C@H](Cc2ccccc2)[C@H](O)[C@@H](O)[C@@H](Cc2ccccc2)N1Cc1cccc(-c2ccn[nH]2)c1 ; strain: RF ; value: <0.03 µM
Nc1nc2c(ncn2[C@H]2C=C[C@@H](CO)C2)c(=O)[nH]1 ; strain: IIIB ; read by: cytopathic effect / MTT ; value: 0.71 µM
NC(=O)C(c1ccccc1)(c1ccccc1)[C@H]1CCCN(CCc2ccc3c(c2)CCC3)C1 ; strain: NL4-3 ; read by: cytopathic effect / XTT ; value: 0.12 µM
O=C1N(Cc2ccccc2)[C@H](Cc2ccncc2)[C@H](O)[C@@H](O)[C@@H](Cc2ccncc2)N1Cc1ccccc1 ; strain: RF ; read by: hybridisation ; value: <5.7 µM
O=C1N(Cc2ccc(CO)cc2)[C@H](Cc2ccccc2)[C@H](O)[C@@H](O)[C@@H](Cc2ccccc2)N1Cc1ccc(CO)cc1 ; strain: A018C POST AZT ; read by: virus yield ; value: <0.32 µM
Nc1ccn([C@H]2CC[C@H](CO)S2)c(=O)n1 ; strain: IIIB ; read by: cytopathic effect / MTT ; value: >100 µM
Nc1ccn([C@H]2CC[C@@H](CO)O2)c(=O)n1 ; strain: HxB2-MT 65 (RT-K65R ; changes: RT-K65R ; read by: p24 / ELISA ; value: 0.31 µM
NC(=O)C(c1ccccc1)(c1ccccc1)[C@H]1CCCN(CCOc2ccccc2)C1 ; strain: NL4-3 ; read by: cytopathic effect / XTT ; value: 1.1 µM
C=C(C)[C@@H]1CC[C@]2(C(=O)Nc3ccccn3)CC[C@]3(C)[C@H](CC[C@@H]4[C@@]5(C)CC=C(c6ccc(C(=O)O)cc6)C(C)(C)[C@@H]5CC[C@]43C)[C@@H]12 ; strain: NL4-3 ; changes: Gag P373S ; read by: luciferase ; value: <0.1 µM
Nc1nc(=O)n([C@@H]2CS[C@H](CO)O2)cc1F ; strain: Clinical isolate ; changes: M184V ; read by: recombinant virus assay ; value: 13.3 µM
O=C1N(Cc2ccccc2)[C@H](Cc2ccc(O)cc2)[C@H](O)[C@@H](O)[C@@H](Cc2ccc(O)cc2)N1Cc1ccccc1 ; strain: RF ; read by: hybridisation ; value: <0.185 µM
CCCc1cc(=O)oc2c3c(c4c(c12)OC(C)(C)C=C4)O[C@@H](C)[C@H](C)[C@@H]3O ; strain: IIIB ; read by: cytopathic effect / XTT ; value: 0.8 µM
NC(=O)C(c1ccccc1)(c1ccccc1)C1CCCN(CCOCc2ccccc2)C1 ; strain: NL4-3 ; read by: cytopathic effect / XTT ; value: 5.6 µM
CCCc1cc(=O)oc2c3c(c4c(c12)OC(C)(C)C=C4)O[C@H](C)[C@@H](C)[C@@H]3O ; strain: IIIB ; read by: XTT ; value: 0.4 µM
COC(=O)[C@H](C)NP(=O)(OCC1C/C1=C\n1cnc2c(N)ncnc21)Oc1ccccc1 ; strain: LAI ; read by: p24 ; value: 0.51 µM
CC(C)(C)NC(=O)[C@@H]1C[C@@H]2CCCC[C@@H]2CN1C[C@@H](OC(=O)C(CS)NC(=O)CCCCON)[C@H](Cc1ccccc1)NC(=O)[C@H](CC(N)=O)NC(=O)c1ccc2ccccc2n1 ; strain: LAV/LAI ; read by: cytopathic effect / MTT ; value: 0.9 µM
Cc1ccnc2c1NC(=O)c1cccnc1N2C1CC1 ; strain: IIIB ; read by: XTT ; value: 0.1 µM
Nc1cccc(C[C@@H]2[C@H](O)[C@@H](O)[C@@H](Cc3cccc(N)c3)N(Cc3ccccc3)C(=O)N2Cc2ccccc2)c1 ; strain: RF ; read by: hybridisation ; value: <1.3 µM
O=C1N(Cc2cccc(-c3ncn[nH]3)c2)[C@H](Cc2ccccc2)[C@H](O)[C@@H](O)[C@@H](Cc2ccccc2)N1Cc1cccc(-c2ncn[nH]2)c1 ; strain: RF ; value: <0.128 µM
NC(=O)C(c1ccccc1)(c1ccccc1)[C@H]1CCCN(CCc2ccc3c(c2)CCO3)C1 ; strain: NL4-3 ; read by: cytopathic effect / XTT ; value: 0.82 µM
O=S1(c2ccccc2)=NC(=S)Nc2ccccc21 ; strain: RF ; read by: cytopathic effect / XTT ; value: 0.44 µM
[N-]=[N+]=N[C@H]1C[C@H](n2ccc(N)nc2=O)O[C@@H]1CO ; strain: AZT-resistant (RT D67N K70R T215F K219Q) ; changes: RT-D67N K70N T215F K219Q ; read by: p24 ; value: 160.8 µM
CC(C)[C@@H]1CC[C@]2(C(=O)NCCC(=O)O)CC[C@]3(C)[C@H](CC[C@@H]4[C@@]5(C)CC=C(c6ccc(C(=O)O)cc6)C(C)(C)[C@@H]5CC[C@]43C)[C@@H]12 ; strain: NL4-3 ; changes: Gag P373S ; read by: luciferase ; value: <0.1 µM
C[C@H](Cn1cnc2c(N)ncnc21)OCP(=O)(O)O ; strain: A17 ; changes: RT-K103N Y181C ; read by: p24 ; value: 0.5 µM
Cc1cccc(C)c1OCC(=O)N[C@@H](Cc1ccccc1)[C@@H](O)C[C@H](Cc1ccccc1)NC(=O)[C@H](C(C)C)N1CCCNC1=O ; strain: LAI ; value: 0.034 µM
O=c1[nH]cnc2c1ncn2[C@H]1CC[C@@H](CO)O1 ; strain: HXB2 ; read by: p24 / ELISA ; value: 0.5 µM
Nc1nc(N)c2ncn([C@H]3CO[C@@H](CO)O3)c2n1 ; strain: LAI ; read by: cytopathic effect / XTT ; value: 12.5 µM
Nc1nc(NC2CC2)c2ncn([C@H]3C=C[C@@H](CO)C3)c2n1 ; strain: IIIB ; read by: cytopathic effect / MTT ; value: 2.4 µM
CN(C)c1ccc(C[C@@H]2[C@H](O)[C@@H](O)[C@@H](Cc3ccc(N(C)C)cc3)N(Cc3ccccc3)C(=O)N2Cc2ccccc2)cc1 ; strain: RF ; read by: hybridisation ; value: <2.7 µM
O=S1(c2ccccc2)=NC(=S)Nc2ccc(Cl)cc21 ; strain: IIIB ; read by: cytopathic effect / XTT ; value: 0.04 µM
Cc1cc(Br)cc(C)c1Oc1cc(Nc2ccc(C#N)cc2)c(N)cc1[N+](=O)[O-] ; strain: RF ; read by: p24 / ELISA ; value: 20.3 µM
O=S1(c2ccc(Cl)cc2)=NC(=S)Nc2ccc(Cl)cc21 ; strain: IIIB ; read by: cytopathic effect / XTT ; value: 0.04 µM
COc1cccc(C[C@@H]2[C@H](O)[C@@H](O)[C@@H](Cc3cccc(OC)c3)N(Cc3ccccc3)C(=O)N2Cc2ccccc2)c1 ; strain: RF ; read by: hybridisation ; value: <0.35 µM
O=c1[nH]cnc2c1ncn2[C@H]1CC[C@@H](CO)O1 ; strain: LAI ; read by: cytopathic effect / MTT ; value: 2.5 µM
Nc1ccn([C@@H]2CC[C@H](CO)S2)c(=O)n1 ; strain: IIIB ; read by: cytopathic effect / MTT ; value: 70 µM
COC(=O)[C@H](C)NP(=O)(OC[C@H]1C/C1=C\n1cnc2c(=O)[nH]c(N)nc21)Oc1ccccc1 ; strain: LAI ; read by: cytopathic effect / MTT ; value: >100 µM
C[C@]12CC[C@H](O)CC1=CC[C@@H]1[C@@H]2CC[C@]2(C)C(=O)CC[C@@H]12 ; strain: IIIB ; read by: RT activity ; value: 50 µM
O=C1N[C@H](Cc2ccccc2)[C@H](O)[C@@H](O)[C@@H](Cc2ccccc2)N1Cc1cccc(-c2ccn[nH]2)c1 ; strain: RF ; value: <0.067 µM
COC(=O)[C@H](C)NP(=O)(OC[C@H]1C/C1=C/n1cnc2c(=O)[nH]c(N)nc21)Oc1ccccc1 ; strain: LAI ; read by: cytopathic effect / MTT ; value: >76 µM
O=C1N(Cc2cccc(/C(=N\O)C(F)(F)F)c2)[C@H](Cc2ccccc2)[C@H](O)[C@@H](O)[C@@H](Cc2ccccc2)N1Cc1cccc(/C(=N\O)C(F)(F)F)c1 ; strain: RF ; value: <0.714 µM
Nc1nc(=O)n([C@@H]2CC[C@H](CO)O2)cc1F ; strain: IIIB ; read by: cytopathic effect / MTT ; value: 0.007 µM
Nc1nc(NC2CC2)c2ncn([C@H]3C=C[C@@H](CO)O3)c2n1 ; strain: IIIB ; read by: cytopathic effect / MTT ; value: 11 µM

5 of the rows above, restated:

structure	strain	changes	read by	value
Nc1nc(=O)n([C@@H]2CS[C@H](CO)O2)cc1F	Clinical isolate	M184V	recombinant virus assay	13.3 µM
NC(=O)C(c1ccccc1)(c1ccccc1)[C@H]1CCCN(CCOc2ccccc2)C1	NL4-3		cytopathic effect / XTT	1.1 µM
Nc1cccc(C[C@@H]2[C@H](O)[C@@H](O)[C@@H](Cc3cccc(N)c3)N(Cc3ccccc3)C(=O)N2Cc2ccccc2)c1	RF		hybridisation	<1.3 µM
Nc1nc(NC2CC2)c2ncn([C@H]3C=C[C@@H](CO)C3)c2n1	IIIB		cytopathic effect / MTT	2.4 µM
C[C@H](Cn1cnc2c(N)ncnc21)OCP(=O)(O)O	A17	RT-K103N Y181C	p24	0.5 µM